Assay results published in PubChem BioAssay AID588689 (Southern Research Specialized Biocontainment Screening …, 2011).
Only a part is listed here, and it is no random draw. Measured potencies and affinities stand elsewhere. Some salts and complexes are drawn in separate pieces, as the source files them; their charges need not balance. Calls of active or inactive are those of the source. Cut-off read from the data, not from the text of the source: inconclusive = inhibition above about 29% without an active follow-up result; inactive = below that.

The chains behind the UniProt entries cited, without tags or fusion partners.
UniProt P29991, whole entry: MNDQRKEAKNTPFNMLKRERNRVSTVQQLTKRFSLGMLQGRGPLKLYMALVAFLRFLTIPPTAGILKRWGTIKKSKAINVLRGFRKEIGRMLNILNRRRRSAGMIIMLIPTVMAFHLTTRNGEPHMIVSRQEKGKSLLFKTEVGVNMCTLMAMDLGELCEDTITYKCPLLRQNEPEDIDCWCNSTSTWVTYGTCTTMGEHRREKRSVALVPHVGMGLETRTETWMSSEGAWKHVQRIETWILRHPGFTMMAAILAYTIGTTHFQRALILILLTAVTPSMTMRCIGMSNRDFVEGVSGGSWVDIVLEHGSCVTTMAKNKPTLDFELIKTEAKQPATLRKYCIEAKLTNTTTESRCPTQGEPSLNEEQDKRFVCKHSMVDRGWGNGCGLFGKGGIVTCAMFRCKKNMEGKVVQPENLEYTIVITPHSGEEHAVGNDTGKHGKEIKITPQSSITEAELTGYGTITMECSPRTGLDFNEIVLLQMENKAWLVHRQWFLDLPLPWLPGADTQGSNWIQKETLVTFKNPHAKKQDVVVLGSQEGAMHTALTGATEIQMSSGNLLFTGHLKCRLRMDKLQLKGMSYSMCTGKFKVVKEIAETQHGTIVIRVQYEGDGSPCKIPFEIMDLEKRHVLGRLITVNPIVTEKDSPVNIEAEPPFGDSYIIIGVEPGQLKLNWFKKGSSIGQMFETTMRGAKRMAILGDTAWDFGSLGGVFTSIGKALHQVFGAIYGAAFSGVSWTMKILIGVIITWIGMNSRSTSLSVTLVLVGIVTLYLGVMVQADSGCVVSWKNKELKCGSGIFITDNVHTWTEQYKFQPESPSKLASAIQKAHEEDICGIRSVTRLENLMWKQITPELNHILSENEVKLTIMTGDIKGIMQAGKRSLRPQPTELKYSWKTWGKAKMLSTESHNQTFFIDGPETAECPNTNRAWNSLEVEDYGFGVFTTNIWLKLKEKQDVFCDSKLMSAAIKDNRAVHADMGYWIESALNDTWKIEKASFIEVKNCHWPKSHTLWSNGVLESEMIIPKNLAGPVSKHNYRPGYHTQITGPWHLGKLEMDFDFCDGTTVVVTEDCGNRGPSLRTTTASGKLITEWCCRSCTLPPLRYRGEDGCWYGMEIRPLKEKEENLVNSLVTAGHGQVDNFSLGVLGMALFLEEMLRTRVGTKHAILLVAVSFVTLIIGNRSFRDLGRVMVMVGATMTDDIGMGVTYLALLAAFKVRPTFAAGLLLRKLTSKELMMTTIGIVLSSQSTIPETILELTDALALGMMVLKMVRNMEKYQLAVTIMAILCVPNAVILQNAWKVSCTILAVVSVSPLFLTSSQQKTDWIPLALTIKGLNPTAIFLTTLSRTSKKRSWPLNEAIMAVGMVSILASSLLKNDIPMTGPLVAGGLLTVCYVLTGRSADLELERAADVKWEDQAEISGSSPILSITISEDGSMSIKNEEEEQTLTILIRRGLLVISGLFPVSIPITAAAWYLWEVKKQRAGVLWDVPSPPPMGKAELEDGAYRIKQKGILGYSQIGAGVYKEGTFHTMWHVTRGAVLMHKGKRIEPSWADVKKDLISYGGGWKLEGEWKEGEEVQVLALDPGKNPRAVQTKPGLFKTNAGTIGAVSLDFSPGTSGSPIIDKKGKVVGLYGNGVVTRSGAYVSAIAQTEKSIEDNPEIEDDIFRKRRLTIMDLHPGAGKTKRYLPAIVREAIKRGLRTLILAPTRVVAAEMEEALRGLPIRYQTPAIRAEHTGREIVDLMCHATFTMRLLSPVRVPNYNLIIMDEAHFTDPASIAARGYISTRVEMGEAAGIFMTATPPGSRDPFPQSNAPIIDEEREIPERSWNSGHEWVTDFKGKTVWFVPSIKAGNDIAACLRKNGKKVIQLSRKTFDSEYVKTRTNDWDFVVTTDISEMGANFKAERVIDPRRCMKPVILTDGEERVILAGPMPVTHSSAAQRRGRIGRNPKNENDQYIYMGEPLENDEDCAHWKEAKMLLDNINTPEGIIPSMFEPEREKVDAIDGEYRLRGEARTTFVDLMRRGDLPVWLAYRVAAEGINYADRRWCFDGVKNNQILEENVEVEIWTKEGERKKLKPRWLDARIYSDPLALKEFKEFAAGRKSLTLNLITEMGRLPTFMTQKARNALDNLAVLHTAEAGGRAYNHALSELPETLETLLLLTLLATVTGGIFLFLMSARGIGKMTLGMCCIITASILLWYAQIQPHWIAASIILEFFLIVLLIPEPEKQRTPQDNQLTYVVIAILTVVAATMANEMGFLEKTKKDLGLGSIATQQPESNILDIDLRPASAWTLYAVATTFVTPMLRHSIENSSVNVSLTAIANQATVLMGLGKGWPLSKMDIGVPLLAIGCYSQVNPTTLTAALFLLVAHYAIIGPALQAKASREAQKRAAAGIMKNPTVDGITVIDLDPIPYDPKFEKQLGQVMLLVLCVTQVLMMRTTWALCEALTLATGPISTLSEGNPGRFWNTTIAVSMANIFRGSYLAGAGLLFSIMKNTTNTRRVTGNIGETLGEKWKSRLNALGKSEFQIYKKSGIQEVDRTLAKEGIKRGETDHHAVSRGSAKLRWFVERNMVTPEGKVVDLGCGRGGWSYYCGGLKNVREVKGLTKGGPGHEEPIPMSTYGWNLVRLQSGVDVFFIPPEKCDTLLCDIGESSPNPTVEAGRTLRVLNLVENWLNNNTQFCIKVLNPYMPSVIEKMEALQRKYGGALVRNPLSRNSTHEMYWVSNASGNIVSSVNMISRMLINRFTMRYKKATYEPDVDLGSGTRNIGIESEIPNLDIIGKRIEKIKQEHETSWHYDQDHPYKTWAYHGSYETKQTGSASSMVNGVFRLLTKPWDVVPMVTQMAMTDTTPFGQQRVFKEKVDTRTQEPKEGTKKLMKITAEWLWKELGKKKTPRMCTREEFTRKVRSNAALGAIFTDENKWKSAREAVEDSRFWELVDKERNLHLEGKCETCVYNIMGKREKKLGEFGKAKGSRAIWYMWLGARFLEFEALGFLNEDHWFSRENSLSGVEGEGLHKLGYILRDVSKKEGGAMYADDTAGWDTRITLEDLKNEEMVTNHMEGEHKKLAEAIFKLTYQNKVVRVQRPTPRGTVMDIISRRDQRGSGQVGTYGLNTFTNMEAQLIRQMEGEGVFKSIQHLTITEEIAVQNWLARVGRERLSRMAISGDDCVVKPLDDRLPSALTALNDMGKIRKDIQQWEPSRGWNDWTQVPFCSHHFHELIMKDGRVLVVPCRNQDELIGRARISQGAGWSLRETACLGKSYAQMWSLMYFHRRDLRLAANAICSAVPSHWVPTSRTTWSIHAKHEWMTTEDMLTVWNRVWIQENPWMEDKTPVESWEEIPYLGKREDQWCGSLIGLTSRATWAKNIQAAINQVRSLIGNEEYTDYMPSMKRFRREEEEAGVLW

target: Genome polyprotein (Dengue virus type 2 (strain 16681-PDK53)) (UniProt P29991); experiment: Dengue-2 NS5 methyltransferase inhibitors, primary screen, biochemical, confirmation dose response (AID 588689); conditions: Dengue-2 NS5 methyltransferase capping enzyme assay, at 25 µM, stronger effect = higher value

With `Cc1cc(C)cc(OP(C)(N)=O)c1` (centres undefined) as the molecule, how does the inhibition read?
The inhibition was inactive: -3.7%.

With `CCOC(=O)c1ccc(NP(C)(=O)Oc2ccccc2)cc1` (centres undefined) as the molecule, how does the inhibition read?
Its inhibition is inactive: 1.28%.

Which inhibition does the source give for `COc1ccccc1OP(C)(=O)Nc1ccc(C)cc1` (centres undefined) here?
Its inhibition is inactive: 5.47%.

With `Cc1ccc(NP(C)(=O)Oc2ccccc2)c(C)c1` (centres undefined) as the molecule, how does the inhibition read?
Its inhibition is inactive: -1.59%.

For `CC(C)(C)c1ccc(OP(C)(=O)Nc2ccc(SC(F)(F)F)cc2)cc1` (centres undefined), which inhibition is on record?
The inhibition was inactive: -3.19%.

For `Cc1cccc(C)c1OP(C)(N)=O` (centres undefined), which inhibition is on record?
The inhibition was inactive: -4.38%.

How did the inhibition turn out when `O=[N+]([O-])c1ccc2c(c1)C=Nc1ccccc1O2` was run?
The inhibition was inactive: 6.36%.

How did the inhibition turn out when `O=[N+]([O-])c1cc([N+](=O)[O-])c(Nc2cccnc2)c([N+](=O)[O-])c1` was run?
The inhibition was inactive: -7.36%.

`CCN(CC)CCCOC(=O)C(O)(c1ccccc1)c1ccccc1` was tested. Which inhibition did it give?
The inhibition was inactive: -18.6%.

Which inhibition does the source give for `CP(=O)(Nc1ccccn1)Oc1ccc(Cl)cc1` (centres undefined) here?
The inhibition was inactive: -0.7%.

`CCOP(C)(=S)SCC(=O)NC(C)C(=O)O` (centres undefined) was tested. Which inhibition did it give?
The inhibition was inactive: 0.69%.

With `CCOC(=O)c1ccc(NP(C)(=O)Oc2ccc(OC)cc2)cc1` (centres undefined) as the molecule, how does the inhibition read?
Its inhibition is inactive: -4.6%.

How did the inhibition turn out when `CCc1ccc(OP(C)(=O)N2CCN(c3ccc([N+](=O)[O-])cc3)CC2)cc1` (centres undefined) was run?
The inhibition was inactive: 2.33%.

For `CP(=O)(NC(=O)Nc1ccccc1)Oc1ccccc1` (centres undefined), which inhibition is on record?
Its inhibition is inactive: 0.68%.

For `Cc1cc(C)cc(OP(C)(=O)Nc2ccc(SC(F)(F)F)cc2)c1` (centres undefined), which inhibition is on record?
Its inhibition is inactive: -6.73%.

With `Cc1cccc(C)c1OP(C)(=O)Nc1ccc(SC(F)(F)F)cc1` (centres undefined) as the molecule, how does the inhibition read?
Its inhibition is inactive: -2.96%.

Which inhibition does the source give for `Cc1ccc(Nc2c([N+](=O)[O-])cc([N+](=O)[O-])cc2[N+](=O)[O-])cc1` here?
The inhibition was inactive: 23.6%.

How did the inhibition turn out when `CP(=O)(Oc1ccccc1)OC(c1ccccc1)C(F)(F)F` (centres undefined) was run?
The inhibition was inactive: -0.76%.

With `COc1ccccc1OP(C)(=O)Nc1ccccc1` (centres undefined) as the molecule, how does the inhibition read?
Its inhibition is inactive: 8.53%.

How did the inhibition turn out when `CP(=O)(Nc1ccccc1Br)Oc1ccccc1` (centres undefined) was run?
The inhibition was inactive: 3.89%.

How did the inhibition turn out when `CP(=S)(Nn1cnnc1)Oc1ccccc1` (centres undefined) was run?
The inhibition was inactive: -0.69%.

For `CP(=O)(OC12CC3CC(CC(C3)C1)C2)OC12CC3CC(CC(C3)C1)C2`, which inhibition is on record?
Its inhibition is inactive: 2.45%.

Which inhibition does the source give for `CCOC(=O)c1ccc(NP(C)(=O)Oc2ccc(Cl)cc2)cc1` (centres undefined) here?
Its inhibition is inactive: -3.21%.

With `CN(C)C(=O)c1c([N+](=O)[O-])cc([N+](=O)[O-])cc1[N+](=O)[O-]` as the molecule, how does the inhibition read?
Its inhibition is inactive: -1.55%.

Which inhibition does the source give for `CP(=O)(Nc1ccc(Cl)cc1)Oc1ccc(F)cc1` (centres undefined) here?
The inhibition was inactive: 0%.

For `CC(C)(C)c1ccc(OP(C)(=O)O)cc1`, which inhibition is on record?
Its inhibition is inactive: -5.72%.

With `COc1ccccc1OP(C)(=O)Nc1ccccc1Br` (centres undefined) as the molecule, how does the inhibition read?
Its inhibition is inactive: -2.99%.

Which inhibition does the source give for `CP(=O)(Oc1ccccc1)N1CCOC1=O` (centres undefined) here?
Its inhibition is inactive: 0%.

For `CCc1ccc(OP(C)(=O)Nc2cccnc2)cc1` (centres undefined), which inhibition is on record?
The inhibition was inactive: -4.44%.

How did the inhibition turn out when `COc1ccccc1OP(C)(=O)Nc1c(C)n(C)n(-c2ccccc2)c1=O` (centres undefined) was run?
Its inhibition is inactive: -3.97%.

`O=C(OCCCN1CCCC1)C(O)(c1ccccc1)C1CCCCC1` (centres undefined) was tested. Which inhibition did it give?
Its inhibition is inactive: 0%.

For `CCN(CC)CC(O)COC(=O)C(O)(c1ccccc1)C1CCCCC1` (centres undefined), which inhibition is on record?
Its inhibition is inactive: -2.46%.

Which inhibition does the source give for `COc1ccc(OP(C)(=O)Nc2ccc(Br)cc2)cc1` (centres undefined) here?
The inhibition was inactive: -2.58%.

For `CCc1ccc(OP(C)(=O)O)cc1`, which inhibition is on record?
Its inhibition is inactive: -0.69%.

How did the inhibition turn out when `CP(=O)(Nc1ccccn1)Oc1ccccc1` (centres undefined) was run?
Its inhibition is inactive: -8.84%.

Which inhibition does the source give for `COc1ccccc1OP(C)(=O)Nc1ccc(C)cc1C` (centres undefined) here?
Its inhibition is inactive: 1.57%.

How did the inhibition turn out when `O=[N+]([O-])c1cc([N+](=O)[O-])c(Nc2ccccn2)c([N+](=O)[O-])c1` was run?
Its inhibition is inactive: 5.43%.

For `Cc1c(NP(C)(=O)Oc2ccc(C(C)C)cc2)c(=O)n(-c2ccccc2)n1C` (centres undefined), which inhibition is on record?
The inhibition was inactive: 0%.

Which inhibition does the source give for `CN(C)CCOC(=O)C(O)(c1ccccc1)C1CCCC1` (centres undefined) here?
The inhibition was inactive: -2.82%.

Which inhibition does the source give for `COc1ccc(OP(C)(=O)Nc2ccccn2)cc1` (centres undefined) here?
The inhibition was inactive: 4.07%.

`COc1ccccc1OP(C)(=O)Nc1ccc(Br)cc1` (centres undefined) was tested. Which inhibition did it give?
Its inhibition is inactive: -3.95%.

For `CP(=O)(OCCOc1ccccc1)OCCOc1ccccc1`, which inhibition is on record?
The inhibition was inactive: -0.79%.

For `CCCCCCCCCCCCCCCC1C[N+](C)(C)CCOP(C)(=O)O1` (centres undefined), which inhibition is on record?
Its inhibition is inactive: 0.77%.

`CP(=O)(Nc1ccc(Cl)cc1Cl)Oc1ccccc1` (centres undefined) was tested. Which inhibition did it give?
The inhibition was inactive: -1.52%.

For `COc1ccc(OP(C)(=O)Nc2ccccc2Br)cc1` (centres undefined), which inhibition is on record?
Its inhibition is inactive: 4.8%.

How did the inhibition turn out when `COc1ccccc1OP(C)(=O)Nc1ccc(C)c(C)c1` (centres undefined) was run?
The inhibition was inactive: -4.29%.

For `O=C1C(O)=C([N+](=O)[O-])C(=O)C(O)=C1[N+](=O)[O-]`, which inhibition is on record?
The inhibition was inactive: 6.37%.

Which inhibition does the source give for `CCCCCOc1ccc(NP(C)(=O)Oc2ccc(Cl)cc2Cl)cc1` (centres undefined) here?
Its inhibition is inactive: -9.19%.

With `CP(=O)(Nc1ccccc1)Oc1ccc(F)cc1` (centres undefined) as the molecule, how does the inhibition read?
Its inhibition is inactive: 0.69%.

For `CCN(CC)CCCOC(=O)C(O)(c1ccccc1)C1CCCCC1` (centres undefined), which inhibition is on record?
Its inhibition is inactive: -8.18%.

`Cc1c([N+](=O)[O-])cc([N+](=O)[O-])c(Br)c1[N+](=O)[O-]` was tested. Which inhibition did it give?
The inhibition was inactive: 11.2%.

With `COc1ccc(OP(C)(=O)Nc2ccc(SC(F)(F)F)cc2)cc1` (centres undefined) as the molecule, how does the inhibition read?
Its inhibition is inactive: -1.59%.

Which inhibition does the source give for `CCOC(=O)c1ccc(NP(C)(=O)Oc2ccc(F)cc2)cc1` (centres undefined) here?
The inhibition was inactive: -4.55%.

How did the inhibition turn out when `COc1ccc2c(c1O)-c1c(O)c(OC)cc3c1[C@H](C2)[N+](C)(C)CC3.O=[N+]([O-])c1cc([N+](=O)[O-])c([O-])c([N+](=O)[O-])c1[O-]` was run?
The inhibition was inactive: 5.72%.

`O=C(OCCN1CCN(CCOCc2ccccc2)CC1)C(O)(c1ccccc1)c1ccccc1` was tested. Which inhibition did it give?
The inhibition was inactive: -3.25%.

Which inhibition does the source give for `O=C(OC1CN2CCC1CC2)c1ccc([N+](=O)[O-])cc1` (centres undefined) here?
The inhibition was inactive: 16.2%.

Which inhibition does the source give for `CC(C)c1ccc(OP(C)(=O)Nc2ccc(SC(F)(F)F)cc2)cc1` (centres undefined) here?
Its inhibition is inactive: -5.81%.

Which inhibition does the source give for `CP(=O)(Nc1ccccc1F)Oc1ccccc1` (centres undefined) here?
Its inhibition is inactive: -3.09%.

How did the inhibition turn out when `O=[N+]([O-])c1cc([N+](=O)[O-])c(Nc2ccc(Cl)cc2)c([N+](=O)[O-])c1` was run?
Its inhibition is inactive: 35.6%.

With `Cc1ccccc1NP(C)(=O)Nc1ccccc1C` as the molecule, how does the inhibition read?
The inhibition was inactive: -4.02%.

Which inhibition does the source give for `CP(=O)(Nc1ccc2c(c1)OCCO2)Oc1ccccc1` (centres undefined) here?
The inhibition was inactive: -8.92%.

`CCOP(C)(=S)SCC(=O)NC(C)(CC)C(=O)O` (centres undefined) was tested. Which inhibition did it give?
Its inhibition is inactive: -13.9%.

For `CP(=O)(Nc1ccc(SC(F)(F)F)cc1)Oc1ccc(F)cc1` (centres undefined), which inhibition is on record?
Its inhibition is inactive: -6.18%.

Which inhibition does the source give for `Cc1c(C(c2ccc3c(c2)OCO3)c2c(C)n(C)n(-c3ccccc3)c2=O)c(=O)n(-c2ccccc2)n1C.O=[N+]([O-])c1cc([N+](=O)[O-])c(O)c([N+](=O)[O-])c1` here?
Its inhibition is inactive: -0.88%.

Which inhibition does the source give for `O=[N+]([O-])c1cc([N+](=O)[O-])c(NCC2CCS(=O)(=O)C2)c([N+](=O)[O-])c1` (centres undefined) here?
The inhibition was inactive: 3.57%.

For `Cc1cc(-c2cccc3ccccc23)c(C)cn1.O=[N+]([O-])c1cc([N+](=O)[O-])c(O)c([N+](=O)[O-])c1`, which inhibition is on record?
The inhibition was inactive: -7.11%.

For `O=[N+]([O-])c1ccc(OP2(=O)COCCO2)cc1` (centres undefined), which inhibition is on record?
The inhibition was inactive: -12.3%.

How did the inhibition turn out when `CN(C)CCOC(=O)C(O)(c1ccccc1)C1CCCCC1` (centres undefined) was run?
The inhibition was inactive: 0.55%.

With `COc1ccc(OP(C)(=O)Nc2cccc(Br)c2)cc1` (centres undefined) as the molecule, how does the inhibition read?
Its inhibition is inactive: 2.42%.
